Legend:
[1] = target: SNAP-25 (endogenous, hamster HIT-T15 cells), Syrian Golden Hamster; assay: cell-based or functional assay; conditions: scale: amount of insulin released per 1x10^6 cells per hour
[2] = target: VAMP-2 (endogenous, hamster HIT-T15 cells), Syrian Golden Hamster; assay: cell-based or functional assay; conditions: scale: amount of insulin released per 1x10^6 cells per hour

Substance	Insulin Release from HIT-T15 cells, 5.6 mM Glucose (Low) [1]	Insulin Release from HIT-T15 cells, 25.2 mM Glucose (High) [1]	Insulin Release from HIT-T15 cells, 5.6 mM Glucose (Low) [2]	Insulin Release from HIT-T15 cells, 25.2 mM Glucose (High) [2]
GFP-LC/E fusion protein	4.2	4.4		
GFP-LC/B fusion protein			3.4	5.5
GFP-LC/A fusion protein	3.2	4.5		

Reference: patent US20120207742
